Pooled drug test results. Numbers come from NIAID ChemDB, via PubChem.

Shared fields: growth or infection tests; species: HIV-1; endpoint: fold resistance

Fold resistance: result on the changed form divided by that on wild type. Rows are shuffled and stem from different studies. An empty or dashed field is not shown. a–b is a range or a potency band.

SMILES	strain	changes	cells	read by	result
C=C(C)[C@@H]1CC[C@]2(C(=O)NCCCCCCCC(=O)N[C@@H](CC(C)C)[C@@H](O)CC(=O)O)CC[C@]3(C)[C@H](CC[C@@H]4[C@@]5(C)CC[C@H](O)C(C)(C)[C@@H]5CC[C@]43C)[C@@H]12	LAI-R(GP41-I84S)	I84S	HeLa P4 + HeLa	p24	>10
COCCOC(=S)Nc1ccc(Cl)c(C(=O)OC(C)C)c1		RT-L100I	CEM	syncytia	31.6
CCN1c2ncc(CCOc3ccc(C(=O)O)c4c3CCCC4)cc2C(=O)N(C)c2ccc(F)nc21		RT-K103N Y181C	C8166	p24	1
CCN1C(=O)c2c(O)c(=O)c(C(=O)NCc3ccc(F)cc3F)cn2[C@H]2CCOC[C@H]21		G140S/Q148R	MT-2	luminescence	2.9
C/C=C/CSc1cc(NC(=S)c2ccsc2C)ccc1Cl	NL4-3	RT-L74V	CEM + CEM-SS	p24	0.875
CCN1c2ncc(CCOc3ccc(-c4ccccn4)cc3C)cc2C(=O)N(C)c2cccnc21		RT-K103N Y181C	C8166	p24	1
CC(C)OC(=S)Nc1ccc(Cl)c(C(=O)OCC[Si](C)(C)C)c1		RT-Y181C	CEM	syncytia	9
Nc1ncnc2c1ncn2[C@@H]1O[C@H](CO)C=C1F		M184V	MT-2		1.2
CC(C)OC(=S)Nc1ccc(Cl)c(C(=O)OC(C(C)C)C(C)C)c1		RT-E138K	CEM	syncytia	≥14.3
Cc1occc1C(=S)Nc1ccc(Cl)c(C(=O)OC(C)C)c1	NL4-3	RT-Y181C	CEM + CEM-SS	cytopathic effect / XTT	40
CSCCOC(=S)Nc1ccc(Cl)c(C(=O)OC(C)C)c1		RT-Y181C	CEM	syncytia	13.3
CCN1c2ncc(CCOc3ccc(CC(=O)O)c4c3CCCC4)cc2C(=O)N(C)c2ccc(F)nc21		RT-K103N Y181C	C8166	p24	1
CCN1c2ncc(CCOc3ccc(C(=O)Nc4cccnc4C)cc3C)cc2C(=O)N(C)c2cccnc21		RT-K103N Y181C	C8166	p24	1
CC(C)OC(=S)Nc1ccc(Cl)c(C(=O)OC2(C)COC2)c1		RT-E138K	CEM	syncytia	14
Cc1cc(S(N)(=O)=O)ccc1NC(=O)COc1ccc(Cl)cc1C(=O)c1cccc(C#N)n1	HXB2	RT-K103N P225H	HeLa + HELA CD4+	β-galactosidase	~1
CCN1c2ncc(CCOc3ccc(C(=O)O)c4c3CCCC4)cc2C(=O)N(C)c2ccc(Cl)nc21		RT-K103N Y181C	C8166	p24	1
C=CCO/N=C/c1cc(NC(=S)c2ccoc2C)ccc1Cl	NL4-3	RT-V108I	CEM + CEM-SS	cytopathic effect / XTT	14.3
CC[C@@H](C)OC(=S)Nc1ccc(Cl)c(C(=O)OC(C)C)c1		RT-E138K	CEM	syncytia	4.48
Cc1occc1C(=S)Nc1ccc(Cl)c(COC(C)(C)C)c1	CALO(RT-T139I)	RT-T139I	CEM + CEM-SS	cytopathic effect / XTT	2.86
Cc1cc(Cl)cc(C(=O)c2cc(Cl)ccc2OCC(=O)Nc2ccc(S(N)(=O)=O)cc2C)c1	HXB2	RT-Y181C	HeLa + HELA CD4+	β-galactosidase	~10
CCCc1cc(=O)oc2c3c(c4c(c12)OC(C)(C)CC4)O[C@H](C)[C@@H](C)C3=O		RT-Y181C		cytopathic effect / XTT	<6
CCN1C(=O)c2c(O)c(=O)c(C(=O)NCc3ccc(F)c(Cl)c3F)cn2[C@H]2CCO[C@H]21		E92Q/N155H	MT-2	luminescence	2.2
CC(C)OC(=O)c1cc(NC(=S)N(C)C(C)C)ccc1Cl		RT-Y181C	CEM	syncytia	>1
CCN1c2ncc(CCOc3ccc(C(=O)NC(C)(C)C(=O)O)cc3C)cc2C(=O)N(C)c2cccnc21		RT-K103N Y181C	C8166	p24	>1
Cc1cc2cn[nH]c2cc1NC(=O)COc1ccc(Cl)cc1C(=O)c1cccc(C#N)c1	HXB2	RT-K103N P225H	HeLa + HELA CD4+	β-galactosidase	~1
CCC(C)OC(=S)Nc1ccc(Cl)c(C(=O)OC(C)(C)C)c1		RT-L100I	CEM	syncytia	21.7
Nc1nc(=O)n([C@H]2C=C[C@@H](CO)O2)cc1F	XM-AZT-resistant	RT-M41L D67N K70R T215Y K219Q	PBMC	p24	0.6
CCN1c2ncc(CCOc3ccc(C(=O)O)c4c3CCN(C(=O)N(C)C)C4)cc2C(=O)N(C)c2cccnc21		RT-K103N Y181C	C8166	p24	1
CC(C)O/N=C/c1cc(NC(=S)OC(C)C)ccc1Cl		RT-L100I	CEM	syncytia	21
CCN1c2ncc(CCOc3ccc(-c4cccc(CC(=O)O)c4)cc3)cc2C(=O)N(C)c2cccnc21		RT-K103N Y181C	C8166	p24	>1
CCOCn1c(Sc2ccccc2)c(C(C)C)c(=O)[nH]c1=O	IIIB (TIBO 82150) (RT-L100I)	RT-L100I	CEM	syncytia	4.4
Cc1cc(S(N)(=O)=O)ccc1NC(=O)COc1ccc(Cl)cc1C(=O)c1cc(F)cc(C#N)c1	HXB2	RT-Y181C	HeLa + HELA CD4+	β-galactosidase	~1
Cc1occc1C(=S)Nc1ccc(Cl)c(C(=O)OCC2CC2)c1	4xAZT(RT-D67N K70R T215Y K219Q)	RT-D67N K70R T215Y K219Q	CEM + CEM-SS	cytopathic effect / XTT	0.8
CCN1c2ncc(CCOc3ccc(-c4ccc(C(=O)O)cc4)c(C)c3)cc2C(=O)N(C)c2cccnc21		RT-K103N Y181C	C8166	p24	>1
CCc1c(Sc2cc(C)cc(C)c2)n(COCc2ccccc2)c(=O)[nH]c1=O	IIIB TIBO R82913-resistant (RT K103N)	RT-K103N	CEM	syncytia	60
CCN1c2ncc(CCOc3ccc(-c4ccc(CC(=O)O)cc4O)cc3C)cc2C(=O)N(C)c2cccnc21		RT-K103N Y181C	C8166	p24	>1
CCN1c2ncc(CCOc3ccc(CC(=O)O)c4c3CCCC4)cc2C(=O)N(C)c2ccc(Cl)nc21		RT-K103N Y181C	C8166	p24	1
Cc1ccc(C2CC2)c(-c2ccc3c(c2)CCCO3)c1[C@H](OC(C)(C)C)C(=O)O	NL4-3	N222K	MT-4	p24 / luminescence	2
FC(F)(Sc1ncccn1)c1nc2ccccc2o1	4xAZT(RT-D67N K70R T215Y K219Q)	RT-D67N K70R T215Y K219Q			0.111
Nc1nc(NC2CC2)c2ncn([C@H]3C=C[C@@H](CO)C3)c2n1	XM-ABC-resistant	RT-K65R L74V M184V Y115F	PBMC	p24	19
C=CCOC(=S)Nc1ccc(Cl)c(C(=O)OC(C)C)c1		RT-E138K	CEM	syncytia	36.9
CCN1c2ncc(CCOc3ccc(C(=O)O)c4c3CCC4)cc2C(=O)N(C)c2ccc(Cl)nc21		RT-K103N Y181C	C8166	p24	1
CCCCCCCCCCCCCCCCOCCCOP(=O)(O)CO[C@H](CO)Cn1cnc2c(N)ncnc21	4xAZT	RT-D67N K70R T215Y K219Q	MT-2	p24	0.7
CC(C)OC(=S)Nc1ccc(Cl)c(C(=O)SC(C)C)c1		RT-V106A	CEM	syncytia	95.4
CCN1c2ncc(CCOc3ccc(CC(=O)O)c4ccccc34)cc2C(=O)Nc2c(C)cc(Cl)nc21		RT-K103N Y181C	C8166	p24	1–10
CCOC(=O)C(C)Oc1cc(NC(=S)OC(C)C)ccc1Cl		RT-E138K	CEM	syncytia	3.08
Cc1cc(S(N)(=O)=O)ccc1NC(=O)COc1ccc(Cl)cc1C(=O)c1cc(F)cc(F)c1	HXB2	RT-L100I	HeLa + HELA CD4+	β-galactosidase	~1
CCOCn1c(Sc2cc(C)cc(C)c2)c(CC)c(=O)[nH]c1=S	IIIB	RT-E138K	CEM	syncytia	10
CCN1c2ncc(CCOc3ccc(CCC(=O)O)c4ccccc34)cc2C(=O)N(C)c2ccc(Cl)nc21		RT-K103N Y181C	C8166	p24	1
Nc1nc2c(ncn2[C@H]2CO[C@@H](CO)O2)c(=O)[nH]1		RT-K65R	MT-2	cytopathic effect / XTT	2.5
Cc1cc(C#N)cc(C(=O)c2cc(Cl)ccc2OCC(=O)Nc2ccc(OCCCN3CC=CC3)cc2C)c1	HXB2 (RT-K103N G190A) Recombinant	RT-K103N G190A	HeLa + HELA CD4+	β-galactosidase	~1
CCN1c2ncc(CCOc3ccc(-c4ccc[n+]([O-])c4C)cc3C)cc2C(=O)N(C)c2cccnc21		RT-K103N Y181C	C8166	p24	1
O=C1Nc2ccc(Cl)cc2[C@@](C#CC2CC2)(C(F)(F)F)N1		RT-G190S			28.9
Cc1ccnc(SC(F)(F)c2nc3ccccc3o2)n1	HEPT/236 (RT P236L)	RT-P236L			1.64
CCCCOC(=S)Nc1ccc(Cl)c(C(=O)OC(C)C)c1		RT-E138K	CEM	syncytia	41.7
CCN1c2ncc(CCOc3ccc(NC(=O)CC(C)(C)C(=O)O)cc3C)cc2C(=O)N(C)c2cccnc21		RT-K103N Y181C	C8166	p24	>1
CCc1c(Sc2ccccc2)n(COCc2ccccc2)c(=S)[nH]c1=O	IIIB	RT-E138K	CEM	syncytia	30
C=C(C)[C@@H]1CC[C@]2(C(=O)NCCCCCCCC(=O)N[C@@H](CC(C)C)[C@@H](O)CC(=O)O)CC[C@]3(C)[C@H](CC[C@@H]4[C@@]5(C)CC[C@H](O)C(C)(C)[C@@H]5CC[C@]43C)[C@@H]12	LAI	GP41-L91H	HeLa P4 + HeLa	syncytia	>200
CCN1C(=O)c2c(O)c(=O)c(C(=O)NCc3c(F)cc(F)cc3F)cn2[C@H]2CCOC[C@H]21		E138K/Q148K	MT-2	luminescence	5.9
O=C1Nc2ccc(Cl)cc2[C@@](/C=C/C2CC2)(C(F)(F)F)N1		RT-Y188L			40
Cc1cc(C#N)cc(C(=O)c2cc(Cl)ccc2OCC(=O)Nc2cnc(S(N)(=O)=O)cc2C)c1	HXB2	RT-K103N	HeLa + HELA CD4+	β-galactosidase	~1
Cc1ccc(C2CC2)c(-c2ccc3c(c2C)CCCO3)c1[C@H](OC(C)(C)C)C(=O)O	NL4-3	N222K	MT-4	p24 / luminescence	3
C/C=C\COc1cc(NC(=S)OC(C)C)ccc1Cl	IIIB	RT-K101E	CEM		8.3
CN(C)C1=C(C#N)/C(=C2/C(C#N)=C(N(C)C)N(c3ccc([N+](=O)[O-])cc3)c3c2n(C)c2ccccc32)c2c(c3ccccc3n2C)N1c1ccc([N+](=O)[O-])cc1	6R AZT-resistant (RT D67N K70R T215Y K219Q)	RT-D67N K70R T215Y K219Q	CEM + CEM-SS	cytopathic effect / XTT	14.6
Cc1cc(C#N)cc(C(=O)c2ccccc2OCC(=O)Nc2ccc(S(N)(=O)=O)cc2C)c1		RT-K103N P225H	HeLa MAGI + HeLa	β-galactosidase	10
CCCCCCCCCCCCCCCCCCOCCOP(=O)(O)CO[C@H](CO)Cn1cnc2c(N)ncnc21		RT-K103N	MT-2	p24	0.875
Cc1occc1C(=S)Nc1ccc(Cl)c(/C=N/OC(C)(C)C)c1	NL4-3	RT-A98G	CEM + CEM-SS	cytopathic effect / XTT	8.75
CO/N=C(\C)COc1cc(NC(=S)OC(C)C)ccc1Cl		RT-L100I	CEM	syncytia	14.3
CC(C)c1c(Sc2ccccc2)n(COCCO)c(=O)[nH]c1=O	IIIB	RT-E138K	CEM	syncytia	8.93
Cc1cc(S(N)(=O)=O)ccc1NC(=O)COc1ccc(Cl)cc1C(=O)c1cc(Cl)cc(C#N)c1	HXB2	RT-P236L	HeLa + HELA CD4+	β-galactosidase	~1
CCC(=O)c1ccc(F)c([C@@H]2C[C@@H]2NC(=O)Nc2ccc(C#N)cn2)c1O	LAI	NNRTI-resistant (RT K103N/G190A)	TZM-bl	β-galactosidase / luminescence	1.6
CC(C)COC(=O)c1cc(NC(=S)OC(C)C)ccc1Cl		RT-V106A	CEM	syncytia	85.9
CCN1c2ncc(CCOc3ccc(-c4cccc(C(=O)O)c4)cc3C)cc2C(=O)N(C)c2cccnc21		RT-K103N Y181C	C8166	p24	>1
CCCCCOC(=S)Nc1ccc(Cl)c(C(=O)OC(C)C)c1		RT-V106A	CEM	syncytia	18.2
CCOCn1c(Sc2ccccc2)c(CC)c(=O)[nH]c1=O	IIIB TIBO R82913-resistant (RT K103N)	RT-K103N	CEM	syncytia	257

For reference, 11 entries again:

Nc1nc(=O)n([C@H]2C=C[C@@H](CO)O2)cc1F ; strain: XM-AZT-resistant ; changes: RT-M41L D67N K70R T215Y K219Q ; cells: PBMC ; read by: p24 ; result: 0.6
Cc1occc1C(=S)Nc1ccc(Cl)c(/C=N/OC(C)(C)C)c1 ; strain: NL4-3 ; changes: RT-A98G ; cells: CEM + CEM-SS ; read by: cytopathic effect / XTT ; result: 8.75
CCN1c2ncc(CCOc3ccc(C(=O)Nc4cccnc4C)cc3C)cc2C(=O)N(C)c2cccnc21 ; changes: RT-K103N Y181C ; cells: C8166 ; read by: p24 ; result: 1
CCCc1cc(=O)oc2c3c(c4c(c12)OC(C)(C)CC4)O[C@H](C)[C@@H](C)C3=O ; changes: RT-Y181C ; read by: cytopathic effect / XTT ; result: <6
Cc1cc(C#N)cc(C(=O)c2ccccc2OCC(=O)Nc2ccc(S(N)(=O)=O)cc2C)c1 ; changes: RT-K103N P225H ; cells: HeLa MAGI + HeLa ; read by: β-galactosidase ; result: 10
CCN1c2ncc(CCOc3ccc(-c4cccc(C(=O)O)c4)cc3C)cc2C(=O)N(C)c2cccnc21 ; changes: RT-K103N Y181C ; cells: C8166 ; read by: p24 ; result: >1
CCN1c2ncc(CCOc3ccc(CCC(=O)O)c4ccccc34)cc2C(=O)N(C)c2ccc(Cl)nc21 ; changes: RT-K103N Y181C ; cells: C8166 ; read by: p24 ; result: 1
CCc1c(Sc2cc(C)cc(C)c2)n(COCc2ccccc2)c(=O)[nH]c1=O ; strain: IIIB TIBO R82913-resistant (RT K103N) ; changes: RT-K103N ; cells: CEM ; read by: syncytia ; result: 60
CCOCn1c(Sc2ccccc2)c(CC)c(=O)[nH]c1=O ; strain: IIIB TIBO R82913-resistant (RT K103N) ; changes: RT-K103N ; cells: CEM ; read by: syncytia ; result: 257
CCc1c(Sc2ccccc2)n(COCc2ccccc2)c(=S)[nH]c1=O ; strain: IIIB ; changes: RT-E138K ; cells: CEM ; read by: syncytia ; result: 30
Cc1ccc(C2CC2)c(-c2ccc3c(c2C)CCCO3)c1[C@H](OC(C)(C)C)C(=O)O ; strain: NL4-3 ; changes: N222K ; cells: MT-4 ; read by: p24 / luminescence ; result: 3